Anti-infective test results gathered from many reports (values: NIAID ChemDB through PubChem).

Common to all: growth or infection tests; species: HIV-1; cell line: CEM + CEM-SS; endpoint: EC50

Rows are shuffled and stem from different studies.

compound | strain or isolate | mutations | read by | result
COC(=O)CCC/C=C(\c1cc(C)c(OC)c(C(=O)OC)c1)c1cc(Cl)c(OC)c(C(=O)OC)c1 | - | - | p24 | 0.02 µM
Cc1c(O)cccc1C(=O)N[C@@H](CSc1ccccc1)[C@H](O)CN1C[C@H]2CCCC[C@H]2C[C@H]1C(=O)NC(C)(C)CO | RF | - | cytopathic effect / MTT | 0.0342 µM
CCc1cc(COCc2ccccc2F)c(OC)nc1C | LAI | - | RT activity | >10 µM
CCCc1cc(=O)oc2c3c(c4c(c12)OC(C)(C)CC4)O[C@@H](C)[C@H](C)[C@@H]3O | RF | - | XTT | 0.23 µM
Cc1c(O)cccc1C(=O)N[C@@H](CSc1ccccc1)[C@H](O)CN1C[C@H]2CCCC[C@H]2C[C@H]1C(=O)NC(C)(C)C | RF | - | RT activity | 0.0179 µM
CCc1cc(COCc2ccc(F)cc2)c(=O)[nH]c1C | LAI | - | RT activity | >100 µM
Cc1cn([C@H]2C[C@H](N=[N+]=[N-])[C@@H](CO)O2)c(=O)[nH]c1=O | SK1 | - | cytopathic effect / XTT | 0.0037 µM
Nc1ccc(S(N)(=O)=O)cc1SSc1cc(S(N)(=O)=O)ccc1N | RF | - | cytopathic effect / XTT | 14.1 µM
Nc1ncnc2c1ncn2/C=C1/C[C@H]1CO | - | - | - | 11 µM
COc1ccc(C(=O)N2CCN(c3ccc4c(c3)CCC(=O)N4)CC2)cc1OC | IIIB | - | cytopathic effect / XTT | 6.34 µg/mL
CC(C)(C)N[C@@H](Cc1ccccc1)C(=O)N[C@@H](Cc1ccccc1)[C@H](O)CNC[C@@H](O)[C@H](Cc1ccccc1)NC(=O)[C@H](Cc1ccccc1)NC(C)(C)C | RF | - | cytopathic effect / XTT | >4 µM
COC(=O)CCC/C=C(\c1ccc(OC)c(C(=O)OC)c1)c1cc(Cl)c(OC)c(C(=O)OC)c1 | RF | - | - | 0.08 µM
CC1(C)CC(=O)C2=C(C1)NC(SSC1=C(C#N)C(c3ccc(Br)cc3)C3=C(CC(C)(C)CC3=O)N1)=C(C#N)C2c1ccc(Br)cc1 | RF | - | cytopathic effect / XTT | 21.6 µM
Cc1cn([C@H]2C[C@H](N=[N+]=[N-])[C@@H](CO)O2)c(=O)[nH]c1=O | LAI | - | RT activity | 0.006 µM
NS(=O)(=O)c1ccc(SSc2ccc(S(N)(=O)=O)cc2[N+](=O)[O-])c([N+](=O)[O-])c1 | RF | - | cytopathic effect / XTT | 34.6 µM
CCc1cc(COCc2ccc(C)cc2)c(=O)[nH]c1C | LAI | - | RT activity | >100 µM
CNCCSS(=O)(=O)CCNC | RF | - | cytopathic effect / XTT | 247.3 µM
C/C=C/CSc1cc(NC(=S)c2ccsc2C)ccc1Cl | HEPT-resistant (RT P236L) | RT-P236L | cytopathic effect / XTT | 0.4 µM
O=C(O)c1cc(O)cc(O)c1N=Nc1ccc(/C=C/c2ccc(N=Nc3c(O)cc(O)cc3C(=O)O)cc2S(=O)(=O)O)c(S(=O)(=O)O)c1 | IIIB | - | cytopathic effect / XTT | 3.2 µg/mL
CCCc1cc(=O)oc2c3c(c4c(c12)OC(C)(C)C=C4)O[C@@H](C)[C@H](C)[C@@H]3O | RF | - | p24 | 0.24 µM
CC(C)(C)NC(=O)[C@@H]1C[C@@H]2CCCC[C@@H]2CN1C[C@@H](O)[C@H](Cc1ccccc1)NC(=O)[C@H](CC(N)=O)NC(=O)c1ccc2ccccc2n1 | RF | - | RT activity | 0.00528 µM
Cc1occc1C(=S)Nc1ccc(Cl)c(/C=N/OC(C)(C)C)c1 | NL4-3 (RT K103N) | RT-K103N | cytopathic effect / XTT | 4.8 µM
COc1cc(SSc2cc(OC)cc([N+](=O)[O-])c2N)c(N)c([N+](=O)[O-])c1 | RF | - | cytopathic effect / XTT | 0.47 µM
Nc1ncnc2c1ncn2/C=C1/C[C@@H]1CO | - | - | - | >100 µM
CCc1cc(COCc2cccc(Br)c2)c(=O)[nH]c1C | LAI | - | RT activity | >10 µM
COC(=S)SSC(=S)NCCN(CCNC(=S)SSC(=S)OC)C(=S)SSC(=S)OC | RF | - | cytopathic effect / XTT | 79 µM
CCc1cc(COCc2ccc(F)cc2)c(OC)nc1C | LAI | - | RT activity | >10 µM
Nc1cc(C(=O)O)ccc1SSc1ccc(C(=O)O)cc1N | RF | - | cytopathic effect / XTT | 31.2 µM
CCc1cc(COCc2ccccc2)c(SC)nc1C | LAI | - | RT activity | >10 µM
C[C@H](NC=O)C(=O)N[C@H](C(=O)N[C@@H](Cc1ccccc1)[C@H](O)CNC[C@@H](O)[C@H](Cc1ccccc1)NC(=O)OC(C)(C)C)C(C)(C)C | RF | - | cytopathic effect / XTT | 5 µM
CNC(=O)CCCCC=C(c1cc(OC)c(OC)c(C(=O)OC)c1)c1cc(OC)c(OC)c(C(=O)OC)c1 | - | - | p24 | 2.26 µM
Cc1cn([C@H]2C[C@H](N=[N+]=[N-])[C@@H](COP(=O)(O)O)O2)c(=O)[nH]c1=O | - | - | MTT | 0.001 µM
O=C(O)c1ccccc1SSc1ccccc1C(=O)O | RF | - | cytopathic effect / XTT | 117.7 µM

ECn: concentration that inhibits the pathogen or its effect by n%. An empty or dashed field is not shown.